In doi:10.1101/2024.06.06.597810:

Molecular target: Biotin-labeled BtRf-BetaCoV stem helix peptide (BtRf-BetaCoV)
Experiment: BLI

## S2P6 WT Fab
  pKd: 6.78

pKd: −log10 of the molar value.
